Assay results published in patent US20130209515A1, “ANTI-INFECTIVE AND IMMUNOMODULATORY COMPOUNDS” (priority 2005, published 2013).
“Also recorded” adds a separate entry of the source.

Tested on: P. aeruginosa cultures
Assay: MS determination of AA analog concentration in bacterial cultures
Design: species or system Pseudomonas aeruginosa
Conditions: P. aeruginosa cultures in LB (FIG. 23C)

Compound	depletion of compound from bacterial cultures (catabolic stability)
Nc1cc(Cl)ccc1C(=O)O [4-CABA, 4-chloro-2-aminobenzoic acid]	actively catabolized
Nc1cccc(F)c1C(=O)O [6-FABA, 6-fluoro-2-aminobenzoic acid]	actively catabolized
Nc1cccc(Cl)c1C(=O)O [6-CABA, 6-chloro-2-aminobenzoic acid]	slowly depleted; also recorded: stable
